Compound potency records, mixed from different reports. Data source: NIAID ChemDB in PubChem.

All rows: target-level tests; organism: HIV-1; protein: Protease; measure: inhibition

An empty or dashed field is not shown.

smiles | strain or isolate | read by | dose | result
CCCC1(Cc2ccccc2)OC(=O)C(C(c2cccc(NS(=O)(=O)c3ccc(C#N)cc3)c2)C(C)C)=C1O |  | fluorescence | 3.3 µM | 100%
Oc1cc(O)c2c(c1)O[C@H](c1cc(O)c(O)c(O)c1)[C@H](O)C2 | IIIB | HPLC | 100 µg/mL | 43.6%
O=C1[C@H]2O[C@@H](CN1Cc1ccccc1)O[C@H]2C(=O)N1CCCNCC1 |  | FRET | 10 µM | 0%
COc1ccc(CCC(O)c2cnc3sc4c(n23)CCCCC4)cc1 |  | fluorescence | 10 µM | 92%
CC(O)[C@H](NC(=O)CCCCCCCCCCCCCCC(=O)N[C@@H](CC(N)=O)C(=O)N[C@@H](Cc1ccccc1)C(=O)O)C(=O)N1CCC[C@H]1C(=O)N[C@@H](Cc1ccccc1)C(N)=O |  |  | 5.5 µM | 15%
Cc1cccc(OCC(=O)N[C@@H](CC(N)=O)C(=O)N[C@@H](Cc2ccccc2)[C@H](O)C(=O)N2CSC(C)(C)[C@H]2C(=O)NC(C)(C)C)c1C |  |  | 0.05 µM | 97.1%
CN1CCN(C(=O)[C@@H]2O[C@H]3O[C@@H]2C(=O)N(Cc2ccccc2)[C@@H]3Cc2ccccc2)CC1 |  | FRET | 1 µM | 0%
O=C1CC(c2ccc(O)cc2)Oc2cc(O)cc(O)c21 |  | substrate cleavage / fluorescence | 1000 µg/mL | 89.3%
CSCC[C@H](NC(=O)[C@H](CC(C)C)NC(=O)[C@@H](NC(=O)CCCCCCCCCCCCCCC(=O)N[C@@H](CC(N)=O)C(=O)N[C@@H](Cc1ccccc1)C(=O)O)C(C)O)C(=O)O |  |  | 5.5 µM | 15%
O=C(CCCO)N1C[C@@H](O)[C@@H](Cc2ccccc2)N(Cc2ccc(O)cc2)C(=O)N1Cc1ccc(O)cc1 |  | fluorescence | 0.0005 µM | 41%
O=C1OC(C(CCO)CCc2ccccc2)C(O)=C1C(c1ccccc1)C1CC1 |  | fluorescence | 0.3 µM | 13%
O=C([C@@H]1O[C@H]2O[C@@H]1C(=O)N(Cc1ccccc1)[C@@H]2Cc1ccccc1)N1CCN(CCO)CC1 |  | FRET | 10 µM | 0%
OC[C@H]1O[C@@H](Oc2cc(O)cc(O)c2)[C@H](O)[C@@H](O)[C@@H]1O | IIIB | HPLC | 100 µg/mL | 68.2%
COc1c(O)cc(O)c2c1OC(c1ccccc1)CC2=O |  | substrate cleavage / fluorescence | 1000 µg/mL | 64.8%
CC(C)(CC(=O)O)CC(=O)N[C@@H](Cc1ccccc1)[C@H](O)C(=O)N1CSC[C@H]1C(=O)NC(C)(C)C |  |  | 5 µM | 50.1%
OC(CCc1ccccc1)c1cnc2sc3c(n12)CCCCCC3 |  | fluorescence | 3.3 µM | 88%
O=C(O)[C@@H]1O[C@@H](Oc2cc3oc(-c4ccc(O)cc4)cc(=O)c3c(O)c2O)[C@@H](O)[C@H](O)[C@H]1O |  | substrate cleavage / fluorescence | 1000 µg/mL | 56.2%
CN(C)c1ccc(CCC(O)c2cnc3sc4c(n23)CCCCC4)cc1 |  | fluorescence | 10 µM | 94%
CCCC1(CCCc2ccccc2)OC(=O)C(C(c2ccccc2)C2CC2)=C1O |  | fluorescence | 3.3 µM | 100%
COC(=O)C[C@H](O)C(CC(C)C)NC(=O)[C@H](C)NC(=O)C[C@H](O)[C@H](Cc1ccc(O)cc1)NC(=O)[C@@H](NC(=O)[C@H](Cc1ccc(O)cc1)NC(=O)OCc1ccccc1)C(C)C |  | fluorescence | 1 µM | 0%
CC(C)[C@H](NC(=O)[C@@H]1CCCN1C(=O)[C@H](O)[C@H](Cc1ccccc1)NC(=O)OC(C)(C)C)C(=O)NCC1CCCCC1 |  |  | 1000 µM | 52.6%
CC(C)(C)NC(=O)[C@@H]1CSCN1C(=O)[C@@H](O)[C@H](Cc1ccccc1)NC(=O)CCC(C)(C)C(=O)O |  |  | 5 µM | 55%
OC(CCc1ccccc1)c1cnc2sc3c(n12)CCCCC3 |  | fluorescence | 3.3 µM | 94%
CC(C)(C)NC(=O)[C@H]1N(C(=O)[C@@H](O)[C@H](Cc2ccccc2)NC(=O)CC(C)(C)C(=O)O)CSC1(C)C |  |  | 0.05 µM | 76.3%
CCC(CC)NC(=O)[C@@H]1CCCN1C(=O)[C@@H](O)[C@H](Cc1ccccc1)NC(=O)[C@H](CC(N)=O)NC(=O)OCc1ccccc1 |  |  | 5 µM | >90%
CCCC1(CCC)OC(=O)C(C(c2cccc(NS(=O)(=O)c3ccc(C#N)cc3)c2)C(C)(C)C)=C1O |  | fluorescence | 3.3 µM | 100%
N[C@@H](CO)C(=O)N[C@@H](Cc1ccccc1)[C@H](O)C(=O)NCC1CCCCC1 |  |  | 1000 µM | 4.5%
COc1cc(O)cc2c1C[C@@H](O)[C@@H](c1cc(O)c(OC)c(O)c1)O2 | IIIB | HPLC | 100 µg/mL | 34.6%
OC(CCc1cccc(Br)c1)c1cnc2sc3c(n12)CCCCC3 |  | fluorescence | 10 µM | 89%
CC(=O)N1C[C@@H](O)[C@@H](Cc2ccccc2)N(Cc2ccc(O)cc2)C(=O)N1Cc1ccc(O)cc1 |  | fluorescence | 0.0005 µM | 60%
CC(CC(N)=O)NC(=O)[C@@H]1CSCN1C(=O)[C@@H](O)[C@H](Cc1ccccc1)NC(=O)[C@H](CS(C)(=O)=O)NC(=O)COc1cccc2ccccc12 |  |  | 0.05 µM | 67%
CCC1(CCc2ccccc2)OC(=O)C(C(c2ccccc2)C2CC2)=C1O |  | fluorescence | 3.3 µM | 100%
CC(C)CNC(=O)[C@@H](NC(=O)[C@H](Cc1ccccc1)NC(=O)[C@H](O)[C@H](Cc1ccccc1)NC(=O)[C@@H](NC(=O)OC(C)(C)C)C(C)C)C(C)C |  |  | 5 µM | 5.4%
CSCC[C@H](NC(=O)[C@H](CC(N)=O)NC(=O)CCCCCCCCCCCCCCC(=O)N[C@H](C(=O)N[C@@H](CC(C)C)C(=O)N[C@@H](Cc1ccccc1)C(N)=O)C(C)O)C(=O)O |  |  | 5.5 µM | 5%
O=C([C@@H]1O[C@@H]2CN(Cc3ccccc3)C(=S)[C@H]1O2)N1CCCC1 |  | FRET | 10 µM | 0%
Oc1cc(O)c2c(c1)O[C@H](c1ccc(O)c(O)c1)[C@H](O)[C@H]2c1c(O)cc(O)c2c1O[C@H](c1ccc(O)c(O)c1)[C@H](O)C2 | IIIB | HPLC | 100 µg/mL | 59%
CCOC(=O)[C@H](CC(C)C)NC(=O)[C@H](Cc1ccccc1)NC(=O)[C@H](O)[C@H](Cc1ccccc1)NC(=O)OC(C)(C)C |  | HPLC | 70 µM | 0%
CC(C)C[C@H](NC(=O)[C@@H]1C[C@@H](O)CN1C(=O)CCCCCCCCCCCCCCC(=O)N[C@@H](CC(N)=O)C(=O)N[C@@H](Cc1ccccc1)C(=O)O)C(=O)N[C@@H](Cc1ccccc1)C(N)=O |  |  | 5.5 µM | 20%
CC(CNC(=O)[C@@H]1CSCN1C(=O)[C@@H](O)[C@H](Cc1ccccc1)NC(=O)[C@H](CS(C)(=O)=O)NC(=O)COc1cccc2ccccc12)C(N)=O |  |  | 0.05 µM | 53.5%
C=CCC1(CCCc2ccccc2)OC(=O)C(C(c2ccccc2)C2CC2)=C1O |  | fluorescence | 3.3 µM | 100%
CC(C)CN(C[C@@H](O)[C@H](Cc1ccccc1)NC(=O)OCc1ccccc1)S(C)(=O)=O |  |  | 10 µM | 89%
CCCCC1(CCCc2ccccc2)OC(=O)C(C(c2ccccc2)C2CC2)=C1O |  | fluorescence | 3.3 µM | 100%
CC(C)(C)NC(=O)[C@@H]1CSCN1C(=O)[C@@H](O)[C@H](Cc1ccccc1)NC(=O)[C@H](CS(C)(=O)=O)NC(=O)COc1cccc2ccccc12 |  |  | 0.05 µM | 93.9%
C=CC[C@H](NC(=O)[C@H](Cc1ccccc1)NS(=O)(=O)N1CCOCC1)C(=O)N[C@@H](CC1CCCCC1)[C@@H](O)C[C@H](C(=O)NCCCC)C(C)C |  | HPLC | 0.1 µM | 66%
CC(C)(C)NC(=O)[C@H]1N(C(=O)[C@@H](O)[C@H](Cc2ccccc2)NC(=O)[C@H](CC(N)=O)NC(=O)OCOc2cccc3ccccc23)CSC1(C)C |  |  | 0.05 µM | 98.4%
CC(C)C(CC(=O)N[C@@H](Cc1ccccc1)[C@H](O)C(=O)N1CSC[C@H]1C(=O)NC(C)(C)C)C(=O)O |  |  | 5 µM | 18.4%

For reference, 3 entries again:

| smiles | strain or isolate | read by | dose | result |
|---|---|---|---|---|
| O=C1[C@H]2O[C@@H](CN1Cc1ccccc1)O[C@H]2C(=O)N1CCCNCC1 |  | FRET | 10 µM | 0% |
| O=C1OC(C(CCO)CCc2ccccc2)C(O)=C1C(c1ccccc1)C1CC1 |  | fluorescence | 0.3 µM | 13% |
| CCCCC1(CCCc2ccccc2)OC(=O)C(C(c2ccccc2)C2CC2)=C1O |  | fluorescence | 3.3 µM | 100% |

Neighbouring rows are from separate reports. Percent inhibition refers to the dose given; in toxicity tests it is the harm to the cells.